PubChem BioAssay AID624099 | ICCB-Longwood | 2012
In all, the deposit lists about 21,000 reagents; this is a part drawn at random. 497 of all reagents (2.4%) were called active. 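Higher z means weaker E2 silencing; only reporter increases were scored, and knock-downs that hurt cell survival may mask genuine repressor factors.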 Reagents against one gene are numbered here.

Aim: 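Host factors E2 relies on to silence an HPV18 LCR reporter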 (primary screen)
System: human C33A cervical carcinoma cells (HPV-negative) stably expressing BPV1 E2 and an HPV18 LCR luciferase reporter
Reagents: siRNA pool against human genes, 40 nM
Time to read-out: 72 h
Detection: 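Per-well luciferase luminescence, z-scored on each plate against the plate mean and SD with control wells left out, then averaged across three replicate plates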
Scale: mean z-score and z-score: higher = stronger reporter signal, weaker E2 silencing
Rule for the call: 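Mean z ≥ 2 together with z ≥ 2 in two or more of the three replicates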

no.	target	pool no.	mean z-score	z-score, replicate A	z-score, replicate B	z-score, replicate C	outcome
1	BEAN1	1	-0.56	-0.46	-0.55	-0.68	inactive
2	CAPN10	1	0.19	-0.12	0.04	0.65	inactive
3	ZNF583	1	1.06	1	1.35	0.83	inactive
4	EIF3G	1	-1.82	-1.57	-1.98	-1.91	inactive
5	PIWIL1	1	-1.09	-1.15	-1.02	-1.11	inactive
6	ISLR2	1	-1.58	-1.54	-1.45	-1.76	inactive
7	LOC387905 (retired record)	1	-0.12	-0.42	-0.25	0.3	inactive
8	PNMA1	1	-0.53	-0.93	-0.23	-0.44	inactive
9	LOC401038 (retired record)	1	-1.65	-1.79	-1.31	-1.86	inactive
10	ARFIP1	1	-0.43	-0.27	-0.38	-0.66	inactive
11	NR3C1	1	1.61	1.73	1.61	1.49	inactive
12	NR3C1	2	-0.25	-0.51	-0.08	-0.17	inactive
13	CELF6	1	0.77	0.58	1.16	0.56	inactive
14	ILF3-DT	1	-0.48	-0.04	-1.06	-0.33	inactive
15	OR2T2	1	-1.51	-1.75	-1.44	-1.34	inactive
16	NRDC	1	-1.25	-1.47	-1.04	-1.25	inactive
17	KCNK4	1	-0.02	-0.57	0.39	0.13	inactive
18	RAB5A	1	-0.55	-0.63	-0.58	-0.45	inactive
19	TXNIP	1	-1.58	-1.25	-1.72	-1.77	inactive
20	UMPS	1	0.58	0.51	0.57	0.65	inactive
21	MBNL3	1	0.19	0.32	0.22	0.03	inactive
22	TMEM51	1	-0.53	-0.2	-0.1	-1.3	inactive
23	ADAM9	1	-0.74	-1.65	-0.71	0.15	inactive
24	POT1-AS1	1	0.26	0.56	0.11	0.11	inactive
25	POT1-AS1	2	0.24	0.23	0.11	0.4	inactive
26	ZNF549	1	-0.15	-0.35	0.01	-0.12	inactive
27	TP53BP1	1	-0.08	-0.02	-0.1	-0.11	inactive
28	ASB7	1	-0.26	-0.06	-0.06	-0.65	inactive
29	GRIN2B	1	0.47	0.41	0.68	0.3	inactive
30	LOC401923 (retired record)	1	0.32	0.51	-0.01	0.44	inactive
31	RABEP1	1	0	-0.14	0.15	-0.02	inactive
32	TENT5C	1	-1	-1.2	-0.96	-0.84	inactive
33	ORMDL2	1	-1.6	-1.29	-1.77	-1.73	inactive
34	UGT2B11	1	2.31	2.36	2.34	2.23	active
35	GPRC5B	1	1.6	2.3	1.96	0.54	inactive
36	NDUFS6	1	0.43	0.36	0.53	0.4	inactive
37	ESR2	1	-0.2	-0.39	-0.09	-0.12	inactive
38	GLB1L2	1	-1.94	-2.18	-1.87	-1.79	inactive
39	SPRYD3	1	0.75	0.55	0.65	1.05	inactive
40	PIGT	1	-0.01	-0.16	0.1	0.02	inactive
41	NUP88	1	-0.28	-0.44	-0.1	-0.31	inactive
42	PLA2G4E	1	0.05	0	0.13	0	inactive
43	PLA2G4E	2	-0.95	-0.84	-1.19	-0.81	inactive
44	ADGRB2	1	-1.63	-1.59	-1.75	-1.55	inactive
45	LOC344165 (retired record)	1	0.12	0.07	0.07	0.22	inactive
46	PDX1	1	-1.25	-1.14	-1.36	-1.27	inactive
47	PGGHG	1	-0.94	-0.84	-1.07	-0.92	inactive
48	LOC387897 (retired record)	1	-0.12	0.16	0.02	-0.54	inactive
49	PRAMEF3 (retired record)	1	-0.73	-0.71	-0.67	-0.81	inactive
50	GAB4	1	0.42	0.36	0.81	0.09	inactive
51	TNFRSF1B	1	-0.98	-0.97	-0.93	-1.03	inactive
52	RNF113B	1	0.94	1.01	1.01	0.79	inactive
53	ALG13	1	0.14	-0.02	0.72	-0.29	inactive
54	ALG13	2	1.17	0.86	1.38	1.26	inactive
55	DPY19L3	1	0.35	0.19	0.68	0.2	inactive
56	DPY19L3	2	0.97	0.79	0.92	1.21	inactive
57	TMEM52B	1	0.67	0.61	1.28	0.12	inactive
